Experimental findings from publication PMC10107573 (Nature Communications, 2023) are described below.

Assay [1] deals with recombinant biotinylated SARS-CoV-2 spike RBD, wild type (SARS-CoV-2, UniProt P0DTC2, biotinylated). Briefly: BLI. Conditions: both partners purified.
Assay [2] concerns the target SARS-CoV-2 spike RBD (wild type) used for crystallization (SARS-CoV-2, UniProt P0DTC2). Briefly: crystal structure. Conditions: both partners purified.

B1: monoclonal antibody 6-2C (human IgG1) (antibody, V domains shown)
VH: QVQLVESGGGVVQPGRSLRLSCASSGFTFSTYHMHWVRQPPGKGLEWVAFISYDGSNYYYSDSVKGRFTISRDNSKNTVYLQMNSLRAEDTALYYCARDSSGWHWGVPFDYWGQGTLVTVSS
VL: EIVLTQSPSSLSASVQDRVTITCRASQVISNYLAWFQQKPGKAPKLLIYAASNLQSGVPSRFRGSGSGTDFTLTISSLQPEDFATYYCQQYNIYPLTFGGGTKVDIK
As for B1, the binding result in assay [1] was “binds”.

B2: 6-2C Fab (Fab, V domains shown)
VH: B1 VH
VL: B1 VL
Turning to B2, the binding result in assay [2] was “binds”.
